PubChem BioAssay AID1259414, Drosophila RNAi Screening Center – 2018
Assay: 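Fly genes that alter Wolbachia amount inside host cells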 (primary screen). Cell system: Drosophila JW18 cells infected with Wolbachia. Reagents: long dsRNA against Drosophila genes, 0.25 µg dsRNA per well of a 384-well plate. Time to read-out: 5 days. Conditions: cells persistently infected with Wolbachia before knock-down; no added drug. Measured: 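Imaged fluorescence in situ signal for Wolbachia 23S rRNA per DAPI-counted host cell, given as a robust z-score within each plate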. Scale: Wolbachia per cell robust z: higher = more Wolbachia per host cell than the plate typical. Call rule: 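Active if absolute robust z reaches 1.5 in two or more of three replicates, leaving out multi- or no-target dsRNAs, genes unexpressed in JW18 and A1 wells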.
The deposit covers about 24,000 reagents; below is an unselected part of those that have a named target and a result. Over the whole deposit, about 1,210 (5%) got an active call. 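Inactive calls also include excluded dsRNAs with several or no targets, genes unexpressed in JW18, and well A1, regardless of score.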 A plus sign joins genes that one reagent is predicted to hit.

target,PubChem SID,"Wolbachia per cell robust z, rep 1","Wolbachia per cell robust z, rep 2","Wolbachia per cell robust z, rep 3",call
CG16965 (GeneID 34607),SID104182339,0.83,-4.91,0.456,inactive
CG8837 (GeneID 33545),SID104180503,0.437,0.863,-0.183,inactive
CG8837 (GeneID 33545),SID104207984,-0.208,-0.76,-0.322,inactive
CG11360 (GeneID 43810),SID104196926,0.824,-7.54,-1.1,inactive
sip1 (GeneID 44238),SID104183401,0.437,0.394,0.47,inactive
sip1 (GeneID 44238),SID104202051,-1.4,-0.264,-0.0845,inactive
sip1 (GeneID 44238),SID104206325,0.88,0.37,1.75,inactive
CG12395 (GeneID 32571),SID104199245,-0.611,0.552,-2.1,inactive
Graf (GeneID 32522),SID104199923,-4.5,0.206,0.0424,inactive
bys (GeneID 31701),SID104198540,-0.386,0.904,-0.286,inactive
bys (GeneID 31701),SID104207557,0.421,-0.818,-1.61,inactive
CG4752 (GeneID 37569),SID104184278,0.729,-1.2,0.491,inactive
CG4752 (GeneID 37569),SID104205685,1.31,0.401,0.874,inactive
wtrw (GeneID 40931),SID104194033,-0.393,-0.356,0.383,inactive
wtrw (GeneID 40931),SID104195070,-0.403,-0.721,-1.71,inactive
wtrw (GeneID 40931),SID104208521,0.153,0.826,0.292,inactive
Pcp (GeneID 33985),SID104183187,-1.03,-0.448,0.74,inactive
His1:CG33813 + His1:CG33864 + His1:CG33855 + 21 more,SID104201058,0.446,0.358,0.403,inactive
Mys45A (GeneID 35925),SID104186859,0.2,1.08,0.652,inactive
Mys45A (GeneID 35925),SID104204396,0.964,0.556,0.128,inactive
CG33469 (GeneID 2768832),SID104202259,0.262,-0.293,-0.742,inactive
KaiR1D (GeneID 42473),SID104195308,-6.41,-1.43,-0.749,inactive
CG17032 (GeneID 39736),SID104190033,-0.422,-0.183,1.08,inactive
AP-1sigma (GeneID 42835),SID104195691,-0.318,-0.287,-2.3,inactive
CG32344 (GeneID 326208),SID104188370,-0.389,-0.134,0.465,inactive
CG32679 (GeneID 318150),SID104197436,0.095,-0.278,-1.5,inactive
CG34382 (GeneID 5740788),SID104189958,-3.19,-1.57,-0.631,inactive
CG34382 (GeneID 5740788),SID104189959,0.136,-0.163,0.705,inactive
CG18764 (GeneID 59239),SID104195183,0.581,0.184,-0.317,inactive
CG32099 (GeneID 317852),SID104201127,-0.0804,-0.0605,-0.789,inactive
Nup50 (GeneID 35784),SID104186619,-0.0519,-0.323,-0.00666,inactive
Nup50 (GeneID 35784),SID104205014,0.0563,0.318,-3.42,inactive
nerfin-2 (GeneID 41235),SID104194339,-0.263,-0.46,-0.761,inactive
nerfin-2 (GeneID 41235),SID104207086,0.24,0.241,-0.676,inactive
Pk34A (GeneID 34705),SID104183190,-0.253,-1.46,-0.458,inactive
Pk34A (GeneID 34705),SID104206565,0.354,-0.342,-1.09,inactive
CG18748 (GeneID 59144),SID104195177,-2.36,0.294,0.831,inactive
CG42570 (GeneID 8674011),SID104189183,-0.383,0.819,-0.0266,inactive
Inx3 (GeneID 44266),SID104194649,-0.402,0.0784,-0.181,inactive
Inx3 (GeneID 44266),SID104203003,-0.275,-0.48,-0.674,inactive
Gr93d (GeneID 117470),SID104201557,-0.888,-0.885,0.176,inactive
wb (GeneID 43946),SID104181167,1.44,-0.0631,0.194,inactive
wb (GeneID 43946),SID104183426,-0.412,-0.556,-5.87,inactive
wb (GeneID 43946),SID104202360,-0.425,1.03,0.252,inactive
wb (GeneID 43946),SID104216739,-2.72,0.00317,-0.183,inactive
Cenp-C (GeneID 41014),SID104194163,1.55,0.796,2.86,inactive
Cenp-C (GeneID 41014),SID104208251,-5.08,1.11,-9.86,inactive
CG3156 (GeneID 30994),SID104198295,1.19,-0.488,-0.197,inactive
CG3156 (GeneID 30994),SID104206483,-1.59,-0.223,0.0342,inactive
CG12851 (GeneID 37993),SID104183923,-0.288,-2.55,0.0153,inactive
CG42749 (GeneID 31438),SID104197883,0.957,-1.19,-3.45,inactive
CG42749 (GeneID 31438),SID104197884,-2.48,1.09,-0.0298,inactive
CG42749 (GeneID 31438),SID104207646,-0.137,0.688,1.43,inactive
bdg (GeneID 36747),SID104186928,-2.57,-3.28,-5.6,inactive
CG6984 (GeneID 36926),SID104186805,-0.848,-1.03,0.665,inactive
CG33090 (GeneID 34835),SID104181700,0.316,0.559,0.204,inactive
CG33090 (GeneID 34835),SID104206467,0.481,0.0993,0.0843,inactive
CG5968 (GeneID 34986),SID104182708,-0.219,-2.98,-0.364,inactive
fab1 + CG33981,SID104206589,-0.0304,-0.28,0.000907,inactive
CG1309 (GeneID 38519),SID104188094,-8.11,-1.55,-1.86,active
Top2 (GeneID 35225),SID104183251,1.18,0.31,0.0289,inactive
Top2 (GeneID 35225),SID104218264,-1.36,0.409,-0.508,inactive
hid (GeneID 40009),SID104191108,-3.88,0.26,0.342,inactive
hid (GeneID 40009),SID104204007,0.639,-0.315,-1.05,inactive
CG6015 (GeneID 42593),SID104195740,3.69,2.64,3.95,inactive
CG6015 (GeneID 42593),SID104206648,6.24,8.07,8.32,inactive
Tnks (GeneID 43095),SID104193946,-1.25,-2.14,0.598,inactive
RNaseP:RNA (GeneID 3772418),SID104202324,-0.442,-0.608,-0.0206,inactive

A run of entries from the list above, for reference:
target,PubChem SID,"Wolbachia per cell robust z, rep 1","Wolbachia per cell robust z, rep 2","Wolbachia per cell robust z, rep 3",call
Mys45A (GeneID 35925),SID104204396,0.964,0.556,0.128,inactive
CG33469 (GeneID 2768832),SID104202259,0.262,-0.293,-0.742,inactive
KaiR1D (GeneID 42473),SID104195308,-6.41,-1.43,-0.749,inactive
CG17032 (GeneID 39736),SID104190033,-0.422,-0.183,1.08,inactive
AP-1sigma (GeneID 42835),SID104195691,-0.318,-0.287,-2.3,inactive
CG32344 (GeneID 326208),SID104188370,-0.389,-0.134,0.465,inactive
CG32679 (GeneID 318150),SID104197436,0.095,-0.278,-1.5,inactive
